This data set is described as follows: Body and organ weights in the murine VL model. Conditions: 3 mg/kg p.o. qd, individual mice. It counts as in vivo, BALB/c mice. The procedure: To determine the anti-leishmanial activity of a representative oral AmpB formulation, the following studies were completed. BALB/c mice were intravenously infected with 5×10^7 Leishmania donovani LV82 promastigotes (obtained by culturing amastigotes taken directly from the spleen of an infected hamster) seven days prior to treatment. Following the seven days, mice were either administered five daily doses of miltefosine at 3 mg/kg po, or Formulation A at 2.5, 5, and 10 mg/kg po bid for five consecutive days or 20 mg/kg po qd for five consecutive days. Appropriate vehicle controls were also assessed. Animals were sacrificed 14 days post infection and Leishman-Donovan units (LDU) were assessed in livers of mice post mortem via microscopic enumeration of Giemsa-stained liver smears

Results on 1 molecule are retold here after patent US8673866B2, “Stabilized formulation for oral administration of therapeutic agents and related methods” (The University of British Columbia, priority 2009, dated 2014).

“And” between values parts separate entries of the source, which are not always exact repeats. Identical values can stand only once.

With `CCCCCCCCCCCCCCCCOP(=O)([O-])OCC[N+](C)(C)C` [Miltefosine, miltefosine], the “Liver weight” value was 1.1060 g and 1.0114 g and 1.1541 g and 1.0693 g; the “Spleen Weight” value is 0.1152 g and 0.1265 g and 0.1216 g and 0.1053 g.
